Results reported in patent publication US7141557B2, “Lipid analogs for treating viral infections” (Wake Forest University, priority 1994, dated 2006).

These compounds were tested on HIV-1 (assay: Anti-HIV-1 syncytial plaque assay using CEM-SS cell monolayers). Details: IC50 for cytotoxicity divided by IC50 for anti-HIV-1 activity, CEM-SS cells.
Format: cell-based, human immunodeficiency virus type 1 (HIV-1)
From the text: In brief, CEM-SS cell monolayers were infected with HIV-1. Infected cells were overlaid with RPMI-1640 medium plus 10 percent fetal bovine serum (FBS) supplemented with different concentrations of inhibitor. Plaques were counted at five days after infection. In this assay HIV-1 syncytial plaques are seen as large, multicellular foci (10 to 25 nuclei/syncytium) that appear either brown and granular or clear. Since the number of HIV-1 syncytial plaques correlates with reverse transcriptase (RT) and p24 core antigen activity in the HIV-1 infected cell overlay fluids, the syncytial plaque assay can be used to quantify the amount of infectious virus. Reverse transcriptase activity was assayed according to a described procedure (B. J. Poeisz et al., Proc. Natl. Acad. Scie. (U.S.A.) 77, 7415 (1980)). The activity of p24 core antigen induced by HIV-1 infection of CEM-SS cells was measured spectrophotometrically using the commercial Coulter EIA.

Which “Differential Selectivity” value does the source give for CCCCCCCCCCCC(=O)NCC(COP(=O)([O-])OCC[N+](C)(C)C)OCCCCCCCCCC (stereo not shown) [CP-128, 1-dodecanamido-2-decyloxypropyl-3-phosphocholine] here?
The value was 225.7.

Which “Differential Selectivity” value does the source give for CCCCCCCCCCCCOCC(COP(=O)([O-])OCC[N+](C)(C)C)OCCCCCCCCCC (stereo not shown) [CP-129, 1-dodecyloxy-2-decyloxypropyl-3-phosphocholine] here?
The value was 176.0.

For CCCCCCCCCCCC(=O)NCC(COP(=O)([O-])OCC[N+](C)(C)C)OCCCCCCCC (stereo not shown) [CP-130, 1-dodecanamido-2-octyloxypropyl-3-phosphocholine], which “Differential Selectivity” value is on record?
Its value is 611.7.

With CCCCCCCCCCCCOC(CNC(=O)CCCCCCCCCCC)COP(=O)([O-])OCC[N+](C)(C)C (stereo not shown) [CP-131, 1-dodecanamido-2-dodecyloxypropyl-3-phosphocholine] as the compound, how does the “Differential Selectivity” value read?
The value was 114.2.
